Experimental findings from publication PMC8765430, “MdaB and NfrA, Two Novel Reductases Important in the Survival and Persistence of the Major Enteropathogen Campylobacter jejuni” (Journal of Bacteriology, 2022) are described below.

Construct, isoform or probe ends are uncertain for at least one entry. At least one verdict was read from the data and is not stated in words by the source. Where a protein sequence is shown, tags need not be part of it.

The data set has as its target T1, RrpB (UniProt Q0P870).
T1 sequence (looked up, limits assumed): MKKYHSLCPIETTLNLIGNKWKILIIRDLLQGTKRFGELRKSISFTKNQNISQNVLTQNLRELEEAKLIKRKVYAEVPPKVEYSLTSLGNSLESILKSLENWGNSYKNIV
Nature of the data set: EMSA. Conditions: specificity test; EMSA: Odyssey infrared EMSA kit, 50 nM probe, 20 ul, 6% gel at 4 C; recombinant protein; protein details: C-terminal His6 (pET21a); label: 5' IRDye 800.

On to “TTAAAAAATATGTTATAATTTTAAAAAATAAGGATTTATAATGAAAAAATAT (double strand) [rrpBprobe (rrpB WT)]”, for which the binding result is on record as “binds”.
